Pooled drug test results. Numbers come from NIAID ChemDB, via PubChem.

Common to all: growth or infection tests; agent: HIV-1; cells: MT-4; read-out: fold resistance

An empty or dashed field is not shown.

| SMILES | strain | mutations | read by | value |
|---|---|---|---|---|
| N#Cc1cc(Cl)cc(Oc2c(Br)ccc(CC(=O)Nc3ccc(S(N)(=O)=O)cc3Cl)c2F)c1 |  | Y181I |  | <1 |
| C=Cc1c(Oc2cc(C)cc(C)c2)c(CC)c(C)[nH]c1=O |  | RT-L100I | cytopathic effect / MTT | 2 |
| Cc1cc(NS(=O)(=O)CC2CCCCC2)c(C)c(C(OC(C)(C)C)C(=O)O)c1-c1ccc2c(c1)CCCO2 | NL4-3 | PI-resistant ARP-11801 (L10F/G16A/L33F/K43T/L63P/A71V/V82A) | luminescence | 1 |
| COCCNC(=O)CSc1cnc(Nc2ccc(C#N)cc2)nc1Oc1c(C)cc(C#N)cc1C |  | Y188L | MTT | 5.4 |
| Cc1ccc(C2CC2)c(-c2ccc3c(c2C)CCCO3)c1[C@H](OC(C)(C)C)C(=O)O | NL4-3 | INSTI-resistant (IN-Q148H) | luminescence | 1 |
| Cc1cc(C#N)cc(C)c1Oc1nc(Nc2ccc(C#N)cc2)ncc1SCC(=O)NCC1CCCO1 |  | E138K | MTT | 2.2 |
| CCc1c(C)[nH]c(=O)c(Br)c1Oc1cc(C)cc(C)c1 |  | RT-Y188L | cytopathic effect / MTT | 32 |
| Cn1c2ccccc2c2c1cc(C#N)c(=O)n2-c1ccc([N+](=O)[O-])cc1 | H | RT-K103N Y181C | cytopathic effect / MTT | 5 |
| CCc1c(C)[nH]c(=O)c(I)c1Oc1cc(C)cc(C)c1 |  | RT-K103N Y181C | cytopathic effect / MTT | 32 |
| Cc1cc(C#N)cc(C)c1Oc1nc(Nc2ccc(C#N)cc2)ncc1SCC(N)=O |  | RES056 | MTT | 64.4 |
| CCc1c(C)[nH]c(=O)c(Cl)c1Oc1cc(C)cc(C)c1 |  | RT-Y181C | cytopathic effect / MTT | 16 |
| Cc1cc(C#N)cc(C)c1Oc1nc(Nc2ccc(C#N)cc2)ncc1SCC(=O)Nc1ccc(S(C)(=O)=O)cc1 |  | Y188L | MTT | 32.4 |
| CCc1c(C)[nH]c(=O)c(C(C)C)c1Oc1cc(C)cc(C)c1 |  | RT-Y181C | cytopathic effect / MTT | 2 |
| N#Cc1cc2[nH]c3ccccc3c2n(-c2ccc([N+](=O)[O-])cc2)c1=O | G | RT-V106A F227L | cytopathic effect / MTT | 2 |
| Cc1cc(C#N)cc(C)c1Oc1nc(Nc2ccc(C#N)cc2)ncc1SCC(=O)NC1CCN(C(=O)OC(C)(C)C)CC1 |  | E138K | MTT | 6.3 |
| CC(C)[C@H](NC(=O)OCc1ccccn1)C(=O)N[C@@H](Cc1ccccc1)[C@@H](O)C[C@H](Cc1ccccc1)NC(=O)OCc1cccnc1 | NL4-3 | PR-M46I L63P V82T I84V | p24 | 3.75 |

The first 2 rows once more:

SMILES | strain | mutations | read by | value
N#Cc1cc(Cl)cc(Oc2c(Br)ccc(CC(=O)Nc3ccc(S(N)(=O)=O)cc3Cl)c2F)c1 |  | Y181I |  | <1
C=Cc1c(Oc2cc(C)cc(C)c2)c(CC)c(C)[nH]c1=O |  | RT-L100I | cytopathic effect / MTT | 2

Fold resistance has wild type as its base. Conditions beyond the fields shown may differ between rows.